Measurements taken from article PMC4618531 (BMC Microbiology, 2015).

What was measured:
[1] = tested on: CC(=O)CC(=O)SCCNC(=O)CCNC(=O)[C@H](O)C(C)(C)COP(=O)(O)OP(=O)(O)OC[C@H]1O[C@@H](n2cnc3c(N)ncnc32)[C@H](O)[C@@H]1OP(=O)(O)O; assay: purified protein; settings: 200 μM NADPH, 0.1 M sodium phosphate pH 7, 0.1 M LiCl, printed kcat 2.19 ± 078 sec^−1 (error misprinted)
[2] = tested on: NC(=O)C1=CN([C@@H]2O[C@H](COP(=O)(O)OP(=O)(O)OC[C@H]3O[C@@H](n4cnc5c(N)ncnc54)[C@H](OP(=O)(O)O)[C@@H]3O)[C@@H](O)[C@H]2O)C=CC1; assay: purified protein; settings: 200 μM acetoacetyl-CoA, 0.1 M sodium phosphate pH 7, 0.1 M LiCl, varied: cofactor

Substance: RsFabG1 (Ralstonia pseudosolanacearum GMI1000)
- Km [1]: 313.28 ± 14.5 µM
- Vmax [1]: 4.7 µmol/min/mg
- Km [2]: 25.75 ± 3.8 µM
- Vmax [2]: 1.5 µmol/min/mg
- kcat [2]: 0.71 s⁻¹
